Test results published in patent publication US7276510B2, “HIV replication inhibitors” (Janssen Pharmaceutica, Inc., priority 2000, dated 2007).

These compounds were tested on HIV-infected MT-4 cells (assay: Inhibition of the HIV-induced cytopathic effect in MT-4 cells (MTT)). Conditions: CC50/IC50 in MT-4 cells.
Type: cell-based
Method: A rapid, sensitive and automated assay procedure was used for the in vitro evaluation of anti-HIV agents. An […] T4-cell line, MT-4, which was previously shown (Koyanagi et al., Int. J. Cancer, 36, 445-451, 1985) to be highly susceptible to and permissive for HIV infection, served as the target cell line. Inhibition of the HIV-induced cytopathic effect was used as the end point. The viability of both HIV- and mock-infected cells was assessed spectrophotometrically via the in situ reduction of 3-(4,5-dimethylthiazol-2-yl)-2,5-diphenyltetrazolium bromide (MTT). […] The percent protection achieved by the compound in HIV-infected cells was calculated by the following formula:
[formula] whereby (ODT)HIV is the optical density measured with a given concentration of the test compound in HIV-infected cells; (ODC)HIV is the optical density measured for the control untreated HIV-infected cells; (ODC)MOCK is the optical density measured for the control untreated mock-infected cells; all optical density values were determined at 540 nm. […] The ratio of CC50 to IC50 was defined as the selectivity index (SI).

SMILES	SI (selectivity index, ratio of CC50 to IC50)
N#Cc1ccc(Nc2nc(Cc3c(Cl)cccc3Cl)nc(N3C(=O)CCC3=O)n2)cc1 [Compound 48]	>12658
CSc1nc(Nc2ccc(C#N)cc2)nc(Nc2c(C)cc(C)cc2C)n1 [Compound 20]	1990
CCOc1nc(Cc2c(Cl)cccc2Cl)nc(Nc2ccc(C#N)cc2)n1 [Compound 58]	1997
Cc1cc(C)c(Oc2cc(C(F)(F)F)nc(Nc3ccc(C#N)cc3)n2)c(C)c1 [Compound 25]	>1266
Cc1cc(Cl)cc(Cl)c1Nc1nc(Cl)nc(Nc2ccc(C#N)cc2)n1 [Compound 109]	3163
N#Cc1ccc(Nc2nc(Cl)nc(Nc3c(Cl)cc(Cl)cc3Cl)n2)cc1 [Compound 85]	2506
Cc1cc(C)c(Oc2nc(Nc3ccc(C#N)cc3)nc(C(N)=O)n2)c(C)c1 [Compound 26]	1995
COCc1cc(Oc2c(Br)cc(C#N)cc2Br)nc(Nc2ccc(C#N)cc2)n1 [Compound 27]	>1000
